{"source": "PubChem BioAssay AID504761 (Drosophila RNAi Screening Center, 2011)", "test": "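Fly genes whose silencing reduces dengue virus type 2 infection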 (primary screen)", "cells": "D.Mel-2 cells from Drosophila", "knock-down reagent": "long dsRNA against Drosophila genes", "conditions": "infection with dengue virus type 2; dose and infection time not stated", "measurement": "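Per well on two replicate plates, imaging gave the percent of cells positive for viral envelope protein, ranked by infection, and a nuclear count of cells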", "reading the numbers": "infection score: higher = more virus-infected cells; cell count: higher = more cells in the well", "call rule": "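Low infection ranks in the two replicates (chance level up to 0.065) followed by a retest with a 1.5-fold or larger significant decrease, p below 0.05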", "meaning of the calls": "active = confirmed: knock-down lowers infection; inactive = not picked or not confirmed", "note": "In all, the deposit lists about 22,000 reagents; this is an unselected part of those with a known target gene and a result. Over the whole deposit, 116 (0.52%) got an active call. 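Calls depend on retest data that are not deposited; infection was ranked per plate without normalising between plates; the unit of the infection score is not given.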 Raw values are not corrected between plates. Reagents against one gene are numbered here. Not stated in the record: the amount of reagent, the time to read-out."}
{"target gene": "Cpsf160 (Cleavage and polyadenylation specificity factor 160)", "reagent no.": 1, "infection score, replicate 1": 7.57, "infection score, replicate 2": 9.34, "cell count, replicate 1": 5750, "cell count, replicate 2": 6039, "activity call": "inactive"}
{"target gene": "CG3226", "reagent no.": 1, "infection score, replicate 1": 5.73, "infection score, replicate 2": 0.34, "cell count, replicate 1": 6689, "cell count, replicate 2": 293, "activity call": "inactive"}
{"target gene": "Eo (Ecdysone oxidase)", "reagent no.": 1, "infection score, replicate 2": 10.8, "cell count, replicate 1": 370, "cell count, replicate 2": 1599, "activity call": "inactive"}
{"target gene": "Eo (Ecdysone oxidase)", "reagent no.": 2, "infection score, replicate 1": 5.89, "infection score, replicate 2": 6.2, "cell count, replicate 1": 6211, "cell count, replicate 2": 5984, "activity call": "inactive"}
{"target gene": "Stoml2 (Stomatin like 2)", "reagent no.": 1, "infection score, replicate 1": 13.2, "infection score, replicate 2": 30.4, "cell count, replicate 1": 5935, "cell count, replicate 2": 3344, "activity call": "inactive"}
{"target gene": "ppk28 (pickpocket 28)", "reagent no.": 1, "infection score, replicate 1": 3.83, "infection score, replicate 2": 2.33, "cell count, replicate 1": 6274, "cell count, replicate 2": 6341, "activity call": "inactive"}
{"target gene": "Vps24 (Vacuolar protein sorting 24)", "reagent no.": 1, "infection score, replicate 1": 13, "infection score, replicate 2": 7.17, "cell count, replicate 1": 2208, "cell count, replicate 2": 6106, "activity call": "inactive"}
{"target gene": "Vps24 (Vacuolar protein sorting 24)", "reagent no.": 2, "infection score, replicate 1": 1.19, "cell count, replicate 1": 503, "cell count, replicate 2": 443, "activity call": "inactive"}
{"target gene": "CG15579", "reagent no.": 1, "infection score, replicate 1": 13.4, "infection score, replicate 2": 7.1, "cell count, replicate 1": 5856, "cell count, replicate 2": 6252, "activity call": "inactive"}
{"target gene": "CG8405", "reagent no.": 1, "infection score, replicate 1": 0.17, "infection score, replicate 2": 0.13, "cell count, replicate 1": 6573, "cell count, replicate 2": 6371, "activity call": "inactive"}
{"target gene": "CG8405", "reagent no.": 2, "infection score, replicate 1": 29.5, "infection score, replicate 2": 11.4, "cell count, replicate 1": 5203, "cell count, replicate 2": 7301, "activity call": "inactive"}
{"target gene": "CG7407", "reagent no.": 1, "infection score, replicate 1": 3.46, "infection score, replicate 2": 7.03, "cell count, replicate 1": 6501, "cell count, replicate 2": 6459, "activity call": "inactive"}
{"target gene": "CG42676", "reagent no.": 1, "infection score, replicate 1": 6.13, "infection score, replicate 2": 3.85, "cell count, replicate 1": 7100, "cell count, replicate 2": 6387, "activity call": "inactive"}
{"target gene": "CG42676", "reagent no.": 2, "infection score, replicate 1": 2.33, "infection score, replicate 2": 15.1, "cell count, replicate 1": 6744, "cell count, replicate 2": 6142, "activity call": "inactive"}
{"target gene": "CG2258", "reagent no.": 1, "infection score, replicate 1": 18.9, "infection score, replicate 2": 7.82, "cell count, replicate 1": 6436, "cell count, replicate 2": 6628, "activity call": "inactive"}
{"target gene": "CG2258", "reagent no.": 2, "infection score, replicate 1": 7.83, "cell count, replicate 1": 2400, "cell count, replicate 2": 408, "activity call": "inactive"}
{"target gene": "cv-d (crossveinless d)", "reagent no.": 1, "infection score, replicate 1": 16.5, "infection score, replicate 2": 13.4, "cell count, replicate 1": 6437, "cell count, replicate 2": 6141, "activity call": "inactive"}
{"target gene": "cv-d (crossveinless d)", "reagent no.": 2, "infection score, replicate 1": 3.23, "infection score, replicate 2": 9.61, "cell count, replicate 1": 6682, "cell count, replicate 2": 6179, "activity call": "inactive"}
{"target gene": "cv-d (crossveinless d)", "reagent no.": 3, "infection score, replicate 1": 2.96, "infection score, replicate 2": 22.9, "cell count, replicate 1": 6284, "cell count, replicate 2": 4972, "activity call": "inactive"}
{"target gene": "CG32195", "reagent no.": 1, "infection score, replicate 1": 2.13, "infection score, replicate 2": 0.93, "cell count, replicate 1": 6252, "cell count, replicate 2": 5934, "activity call": "inactive"}
{"target gene": "not (non-stop)", "reagent no.": 1, "infection score, replicate 1": 10.2, "infection score, replicate 2": 7.26, "cell count, replicate 1": 6013, "cell count, replicate 2": 6527, "activity call": "inactive"}

No new results follow: an excerpt of the list.
{"target gene": "cv-d (crossveinless d)", "reagent no.": 1, "infection score, replicate 1": 16.5, "infection score, replicate 2": 13.4, "cell count, replicate 1": 6437, "cell count, replicate 2": 6141, "activity call": "inactive"}
{"target gene": "cv-d (crossveinless d)", "reagent no.": 2, "infection score, replicate 1": 3.23, "infection score, replicate 2": 9.61, "cell count, replicate 1": 6682, "cell count, replicate 2": 6179, "activity call": "inactive"}
{"target gene": "cv-d (crossveinless d)", "reagent no.": 3, "infection score, replicate 1": 2.96, "infection score, replicate 2": 22.9, "cell count, replicate 1": 6284, "cell count, replicate 2": 4972, "activity call": "inactive"}
